Three compounds from ChEMBL document CHEMBL3085711, “Phosphorus-nitrogen compounds part 27. Syntheses, structural characterizations, antimicrobial and cytotoxic activities, and DNA interactions of new phosphazenes bearing secondary amino and pendant (4-fluorobenzyl)spiro groups” (2013) can be followed below.

The source made the active and inactive calls. No cut-off for these calls is given here.

Test [1] deals with Escherichia coli. Nature of the test: Binding affinity to Escherichia coli pBR322 A/AGCTT DNA assessed as DNA strand cleavage at 625 to 2500 uM preincubated for 24 hrs prior to HindIII treatment measured after 1 hr by agarose gel electrophoresis.
Test [2] relates to Escherichia coli. Nature of the test: Binding affinity to Escherichia coli pBR322 DNA assessed as DNA strand cleavage at 625 to 2500 uM after 24 hrs by agarose gel electrophoresis.
Test [3] relates to Escherichia coli. Nature of the test: Binding affinity to Escherichia coli pBR322 G/GATCC DNA assessed as DNA strand cleavage at 625 to 2500 uM preincubated for 24 hrs prior to BamHI treatment measured after 1 hr by agarose gel electrophoresis.
The test system of test [4] is Escherichia coli. Nature of the test: Binding affinity to Escherichia coli pBR322 DNA assessed as DNA strand cleavage at 156 to 1250 uM after 24 hrs by agarose gel electrophoresis.

For `CN1CCN(Cc2ccc(F)cc2)P12=NP(Cl)(Cl)=NP(Cl)(Cl)=N2` (configuration not stated), the outcome in the test on Escherichia coli [1] and with Escherichia coli [3] was inactive. Besides, the result in the test with Escherichia coli [2] was Active.
On to `CCN1CCN(Cc2ccc(F)cc2)P12=NP(Cl)(Cl)=NP(Cl)(Cl)=N2` (configuration not stated), for which the result with Escherichia coli [1] and in the test with Escherichia coli [4] was Active.
On to `CN1CCCN(Cc2ccc(F)cc2)P12=NP(Cl)(Cl)=NP(Cl)(Cl)=N2` (configuration not stated), for which the outcome in the test on Escherichia coli [1] and in the test with Escherichia coli [2] was Active.
